Results of single-concentration screens

Mtb glucose medium: 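Growth of Mycobacterium tuberculosis over 3 days (7H9 medium with glucose and tyloxapol); the read-out is not stated. Compounds at 500 µM. Higher reads as more growth inhibition (inferred: compounds with an IC50 in retests scored well above the rest). About 18,000 compounds were tested under these conditions; 7.9% (about 1,400) showed 50% or more at least once.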
Mtb cholesterol medium: 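Phenotypic screen: M. tuberculosis growth, cholesterol and DPPC medium, 4 days; the read-out is not stated. Compounds at 500 µM. Direction is inferred from retests: higher values go with more growth inhibition. Of about 18,000 compounds tested this way, about 900 (5%) reached 50% or more in at least one test.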

The filed quantity is “Percent Effect” (%).
The controls that fix the scale are not given in the record; negative values are as filed.
Many other results are left out here, so strong results are more common than in the screen.

- C=C(C)CN1CCN(C(=O)COC)CC1 : Mtb cholesterol medium: -3.52%
- O=C(Nc1cccnc1)OCC(F)(F)F : Mtb cholesterol medium: 9.953%
- NCC(=O)Nc1ccccc1 : Mtb glucose medium: 8.12%; Mtb cholesterol medium: 1.992%
- CCOC(=O)CCN(CC1CC1)C(=O)c1ccccn1 : Mtb glucose medium: 14.45%
- COC1(c2noc(-c3ccco3)n2)CCOCC1 : Mtb cholesterol medium: 28.69%
- NC(=O)CC1CCCNC1 (centres unmarked) : Mtb cholesterol medium: 3.614%
- CC(Sc1nnc(NCc2ccc(F)cc2)s1)C(N)=O (centres unmarked) : Mtb glucose medium: 3.869%
- CN(CCCC1CCCO1)C(=O)c1ccc(CO)cc1 (centres unmarked) : Mtb glucose medium: 12.57%
- CCN(CC(=O)NC(N)=O)Cc1ccc2c(c1)OCO2 : Mtb cholesterol medium: -1.87%
- Cc1cnn(-c2ccc(C(C)N)cc2F)c1 (centres unmarked) : Mtb glucose medium: -1.548%
- Cc1ccnn1CC(=O)NCCN : Mtb glucose medium: 0.8587%
- COc1cccc(C2CNCCO2)c1 (centres unmarked) : Mtb glucose medium: 28.81%; Mtb cholesterol medium: 39.11%
- Cn1ccnc1C1CCCN1 (centres unmarked) : Mtb glucose medium: -3.847%
- O=C(c1cccnc1)N1CCCC1c1ccc(O)cc1 (centres unmarked) : Mtb glucose medium: 11.67%
- CNC(=O)C(CC(C)C)NC(=O)c1ccc(Br)c(O)c1 (centres unmarked) : Mtb glucose medium: 4.505%
- O=C(Cn1cnnn1)Nc1ccc(SC(F)F)cc1 : Mtb glucose medium: 60.9%; Mtb cholesterol medium: 58.47%
- CC(=O)Nc1ccc(C(=O)Nc2nnc(C)s2)cc1 : Mtb glucose medium: 4.176%
- O=C(Cn1cccnc1=O)N1[C@H]2CCNC[C@@H]1CC2 : Mtb glucose medium: 27.57%
- CC(NS(C)(=O)=O)C(=O)N1CCc2ccc(Br)cc21 (centres unmarked) : Mtb glucose medium: 43.57%
- CCn1cc(OCCOCC2CCCO2)cn1 (centres unmarked) : Mtb glucose medium: 14.26%
- NCCOc1cccc(C(F)(F)F)n1 : Mtb glucose medium: 34.89%
- CN(CCc1ccccn1)C(=O)C1CCCNCC1 (centres unmarked) : Mtb cholesterol medium: -5.363%
- COCCN1CCC(CNC(=O)c2coc(Br)c2)CC1 : Mtb glucose medium: 18.68%; Mtb cholesterol medium: 2.749%
- N#CC1CN(C(=O)c2c(F)cccc2Br)CCO1 (centres unmarked) : Mtb cholesterol medium: 17.39%
- CC(C)n1nnnc1SCC(O)C(F)(F)F (centres unmarked) : Mtb glucose medium: 22.62%; Mtb cholesterol medium: 30.82%

For reference, 2 entries once more:

- CC(C)n1nnnc1SCC(O)C(F)(F)F (centres unmarked) | Mtb glucose medium: 22.62%; Mtb cholesterol medium: 30.82%
- COC1(c2noc(-c3ccco3)n2)CCOCC1 | Mtb cholesterol medium: 28.69%

Data taken from ChEMBL document CHEMBL3988442, “University of Dundee, Small-Polar-MMV Screening Library” (2021).